Results of unrelated studies side by side (data: NIAID ChemDB).

Common to all: growth or infection tests; species: HIV-1; read by: XTT; measure: EC50

ECn is the concentration giving n% inhibition of infection, replication or growth. Neighbouring rows are from separate reports. An empty or dashed field is not shown.

SMILES | changes | strain or isolate | cell line | value
O=c1[nH]cnc2c1ncn2[C@H]1CC[C@@H](CO)O1 |  |  |  | 0.76 µM
CNc1ccc(Cl)cc1S(=O)(=O)c1ccccc1[N+](=O)[O-] |  | IIIB | CEMx174 + CEM | 0.3 µM
Cc1cn([C@H]2C[C@H](N=[N+]=[N-])[C@@H](CO)O2)c(=O)[nH]c1=O |  |  | CEM | 0.001 µM
C[C@@]1(CO)C=CC(c2cnc(N)[nH]c2=O)C1 |  |  | CEM | 13.1 µM
Nc1nc2c(ncn2C[C@@H](OCP(=O)(O)O)C2CC2)c(=O)[nH]1 |  | RF | CEM | >100 µM
CCOP(=O)(O)C(F)OCCn1cnc2c(N)ncnc21 |  | RF | CEM + CEM-SS | >100 µM
COc1cc([C@@H]2c3cc4c(cc3[C@H](O)[C@H]3COC(=O)[C@@H]23)OCO4)cc(OC)c1O |  | IIIB | MT-2 | >0.01 µg/mL
CCCc1cc(=O)oc2c3c(c4c(c12)OC(C)(C)CC4)O[C@@H](C)[C@H](C)[C@@H]3O |  | RF | CEM + CEM-SS | 0.23 µM
C=C(COCP(=O)(O)O)C(C)n1ccc(N)nc1=O |  |  | CEM | 67.1 µM
Cc1cn([C@H]2CC(N=[N+]=[N-])[C@@H](OCP(=O)(O)O)O2)c(=O)[nH]c1=O |  | IIIB | MT-2 | >200 µM
Nc1ncnc2c1ncn2[C@H]1C=C[C@@H](OCP(=O)(O)O)O1 |  | HXB2D | MT-2 | 3.6 µM
COC(=O)[C@@H](Cc1c[nH]c2ccccc12)NC(=O)OC[C@H]1O[C@@H](n2cc(C)c(=O)[nH]c2=O)C[C@@H]1N=[N+]=[N-] |  | LAI | PBMC | 18 µM
O=[N+]([O-])c1cccc(S(=O)(=O)c2cccc([N+](=O)[O-])c2)c1 |  | RF | CEM + CEM-SS | >100 µg/mL
[N-]=[N+]=NCC[C@@H](Cn1cnc2c(=O)[nH]c(N)nc21)OCP(=O)(O)O |  | BRU | CEM | >100 µM
Nc1ncnc2c1ncn2CCOCP(=O)(O)O |  | IIIB | MT-2 | 16 µM
CC1=C(C(=O)Nc2ccccc2)SCCO1 |  | RF | CEM + CEM-SS | >100 µM
COc1cc([C@@H]2c3cc4c(cc3C[C@H]3COC(=O)[C@@H]32)OCO4)cc(OC)c1OC |  | IIIB | MT-2 | >0.00065 µg/mL
CC(C)=CCOc1cc(NC(=S)c2ccoc2C)ccc1Cl | RT-L100I T139I | Costatolide-resistant (RT L100I T139I) | CEM + CEM-SS | 0.04 µM
CCCc1cc(=O)oc2c3c(c4c(c12)OC(C)(C)CC4)O[C@H](C)[C@@H](C)[C@@H]3O |  | RF | CEM + CEM-SS | 0.23 µM
COc1cc(C[C@@]2(O)C(=O)OC[C@@H]2Cc2ccc(OC)c(OC)c2)ccc1O |  | IIIB | MT-2 | 0.2 µg/mL
Nc1ncnc2c1ncn2CCOCP(=O)(O)O | RT-K65R | HXB2D (RT-K65R) | MT-2 | >120 µM
CC(n1cnc2c(=O)[nH]c(N)nc21)C1(COCP(=O)(O)O)CC1 |  |  | CEM | 27.7 µM
C[C@@]1(CO)C=CC(c2c[nH]c(=O)[nH]c2=O)C1 |  |  | CEM | 72.1 µM
CN1N=C(N)c2cn([C@@H]3O[C@H](COP(=O)(O)O)[C@@H](O)[C@H]3O)c3ncnc1c23 |  | SK1 | CEM + CEM-SS | 0.09 µM
COC(=O)[C@@H](Cc1ccccc1)NC(=O)OC[C@H]1O[C@@H](n2cc(C)c(=O)[nH]c2=O)C[C@@H]1N=[N+]=[N-] |  | LAI | PBMC | 2 µM
O=C1OC(=O)c2cc(S(=O)(=O)c3ccc4c(c3)C(=O)OC4=O)ccc21 |  | RF | CEM + CEM-SS | >100 µg/mL
COc1cc([C@@H]2c3cc4c(cc3[C@H](O)[C@H]3COC(=O)[C@H]23)OCO4)cc(OC)c1O |  | IIIB | MT-2 | >0.0066 µg/mL
CC(C)OC(=O)OCOP(=O)(CO[C@H](C)Cn1cnc2c(N)ncnc21)OCOC(=O)OC(C)C |  | IIIB | MT-2 | 3.6 µM
Cc1cn(C(C)C2(COCP(=O)(O)O)CC2)c(=O)[nH]c1=O |  |  | CEM | 86.5 µM
Cc1cn([C@H]2C=C[C@@H](CO)O2)c(=O)[nH]c1=O |  | HXB2D | MT-2 | 8 µM
C=CCOc1cc2c(c3oc(=O)cc(CCC)c13)[C@@H](O)[C@H](C)[C@@H](C)O2 |  |  | CEM + CEM-SS | 4.74 µM
CCCc1cc(=O)oc2c3c(c4c(c12)OC(C)(C)C=C4)O[C@@H](C)[C@H](C)[C@@H]3O | RT-Y181C | E BPTU-resistant (RT Y181C) | CEM + CEM-SS | <0.08 µM
Cc1cn([C@@H]2CC[C@H](CO)O2)c(=O)[nH]c1=O |  | IIIB | MT-2 | >200 µM
CCCc1cc(=O)oc2c3c(c4c(c12)OC(C)(C)C=C4)O[C@H](C)[C@@H](C)[C@@H]3O |  | NL4-3 | CEM + CEM-SS | 0.1 µM
Nc1ncnc2c(C3CC(CO)(CO)CO3)c[nH]c12 |  |  | CEM | 9.3 µg/mL
CCCc1cc(=O)oc2c3c(c4c(c12)OC(C)(C)C=C4)O[C@H](C)[C@@H](C)[C@@H]3OC |  | RF | CEM + CEM-SS | >10 µM
C[C@H](CCC(=O)Nc1ccc(S(=O)(=O)c2ccc(NC(=O)CC[C@@H](C)[C@H]3CC[C@H]4[C@@H]5CC[C@H]6C[C@@H](O)CC[C@]6(C)[C@H]5CC(O)[C@]34C)cc2)cc1)[C@H]1CC[C@H]2[C@@H]3CC[C@H]4C[C@@H](O)CC[C@]4(C)[C@H]3CC(O)[C@]12C |  | RF | CEM + CEM-SS | >100 µg/mL
COC(=O)[C@H](Cc1ccccc1)NC(=O)OC[C@H]1O[C@@H](n2cc(C)c(=O)[nH]c2=O)C[C@@H]1N=[N+]=[N-] |  | LAI | PBMC | 20 µM
CCc1c(Sc2ccccn2)n(COCc2ccccc2)c(=O)[nH]c1=O |  |  | T4 | 0.0009 µM
COc1cc(C[C@H](C)[C@H](C)Cc2ccc(O)c(O)c2)ccc1O |  | IIIB | CEM + CEM-SS | 21 µg/mL
C=C(COCP(=O)(O)O)C(C)n1cc(C)c(=O)[nH]c1=O |  |  | CEM | >100 µM

The first 3 rows once more:

SMILES	changes	strain or isolate	cell line	value
O=c1[nH]cnc2c1ncn2[C@H]1CC[C@@H](CO)O1				0.76 µM
CNc1ccc(Cl)cc1S(=O)(=O)c1ccccc1[N+](=O)[O-]		IIIB	CEMx174 + CEM	0.3 µM
Cc1cn([C@H]2C[C@H](N=[N+]=[N-])[C@@H](CO)O2)c(=O)[nH]c1=O			CEM	0.001 µM